# From paper PMC11012547, “Identification and Biological Evaluation of a Novel Small-Molecule Inhibitor of Ricin Toxin” (2024)
# What was measured:
# [1] = target: T1, RTA (Ricinus communis, UniProt P02879); assay: Cell-free luciferase translation assay (rabbit reticulocyte lysate) with RTA; conditions: 20 μg/mL RTA, 90 min
# [2] = target: T1, RTA; assay: BioLayer Interferometry (BLI) binding of compounds to biotinylated RTA; conditions: BLI Octet RED, biotinylated RTA on sensor
# [3] = target: ricin (Ricinus communis, UniProt P02879); assay: Cell-free luciferase translation assay (rabbit reticulocyte lysate) with ricin; conditions: 100 ng/mL ricin, 90 min
Structure (SMILES),Luciferase synthesis rate relative to RTA-treated group alone ([1]; 100 μM compound),Luciferase synthesis rate relative to RTA-treated group alone ([1]; 200 μM compound),Koff [2],Kon [2],Luciferase synthesis rate relative to ricin control group ([3]; 100 μM compound),Luciferase synthesis rate relative to ricin control group ([3]; 200 μM compound)
CCN(CC)S(=O)(=O)c1cccc(NN=C2C(=O)NC(=O)NC2=O)c1,approximately 1.5 fold,2.5 fold,0.00768 s⁻¹,8320 M⁻¹ s⁻¹,1.5 times,1.8 times
Nc1nc2ncc(CNc3ccc(C(=O)O)cc3)nc2c(=O)[nH]1,,,0.0514 s⁻¹,5920 M⁻¹ s⁻¹,,
